Where “and” joins values, the source holds several entries; their conditions need not be identical. Equal entries are not always repeated.
System: influenza A(H1N1)pdm09 viruses, neuraminidase (NA)

Q: `CCC(CC)[C@H](NC(C)=O)[C@@H]1[C@H](O)[C@@H](C(=O)O)C[C@H]1N=C(N)N` [Peramivir, peramivir] was tested. Which IC50 did it give?
A: The IC50 was 0.07 nM and 0.08 nM and 0.09 nM.
